Potato spindle tuber viroid, loop 6: variant abundance in plants

PSTVd intermediate strain, loop 6: wild type UGACCGCGAG, pool pattern UNNNCGNNNG; upper and lower strand joined, each 5' to 3', the first 5 letters being the upper strand, closing pairs included.

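Three N. benthamiana plants were inoculated with the whole mutant pool. Samples came from the inoculated region at 5 days, the leaf margin at 10 and upper systemic leaves at 12.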

Numbers give reads per thousand; 0 = not seen among the reads, higher = more abundant.
Each value is the mean of three plants.
"Pool" is the share in the plasmid pool used as inoculum, on the same scale.
The inoculated region was read from the minus strand, the other sites from the plus strand.
IR is the inoculated region, LM the leaf margin, Sys the systemic leaves.

* UAAUCGAGCG (pool 0.366): IR 0.671; LM 0.0592; Sys 0
* UACGCGAGUG (pool 0.131): IR 0.0601; LM 0.00920; Sys 0
* UAGCCGCUUG (pool 0.601): IR 0.107; LM 0; Sys 0
* UAGUCGCUUG (pool 0.183): IR 0.0708; LM 0; Sys 0
* UAGUCGUACG (pool 0.170): IR 0.0891; LM 0.0184; Sys 0
* UAGUCGUCAG (pool 0.248): IR 0.112; LM 0; Sys 0
* UAUGCGCAUG (pool 0.118): IR 0.0715; LM 0.00773; Sys 0
* UCAGCGCCAG (pool 0.0915): IR 0.0885; LM 0; Sys 0
* UCAUCGUGCG (pool 0.157): IR 0.0476; LM 0.00773; Sys 0
* UCCGCGCGGG (pool 0.196): IR 0.0826; LM 0; Sys 0
* UCGGCGACAG (pool 0.235): IR 0.101; LM 0; Sys 0
* UCGGCGUUUG (pool 0.379): IR 0.125; LM 0.00920; Sys 0.00684
* UCUGCGAUUG (pool 0.445): IR 0.0778; LM 0; Sys 0
* UGAUCGAACG (pool 0.261): IR 0.0884; LM 0.00773; Sys 0
* UGCCCGGCUG (pool 0.275): IR 0.0831; LM 0; Sys 0
* UGGGCGCCGG (pool 0.118): IR 0.0476; LM 0.0169; Sys 0
* UGGGCGUAUG (pool 0.222): IR 0.106; LM 0.0828; Sys 0
* UGUUCGUAAG (pool 0.131): IR 0.0715; LM 0.0184; Sys 0
* UUAGCGCUUG (pool 0.261): IR 0.0893; LM 0; Sys 0
* UUCGCGGUCG (pool 0.222): IR 0.107; LM 0; Sys 0

A selection of 2 entries from above:

* UCAUCGUGCG (pool 0.157) = IR 0.0476; LM 0.00773; Sys 0
* UGCCCGGCUG (pool 0.275) = IR 0.0831; LM 0; Sys 0

With 36,220-57,551 reads a sample, very low values are single reads.
Wild type was 20.7 per thousand in the pool and the most common sequence in every sample (inoculated region 195, 198, 203; leaf margin 629, 591, 734; systemic leaves 942, 870, 868).
The authors trace changes outside the varied positions to PCR and sequencing errors or to mutation in the plant; presence does not show that a variant is infectious alone.

From the data files of Wu et al. 2024, doi:10.1371/journal.ppat.1012142.